Pooled drug test results. Numbers come from NIAID ChemDB, via PubChem.

Shared fields: target-level tests; organism: Hepatitis C virus; target: Nonstructural protein 5B; read-out: inhibition

Percent inhibition refers to the dose given; in toxicity tests it is the harm to the cells. Neighbouring rows are from separate reports.

| compound | tested at | result |
|---|---|---|
| O=C(Nc1ccc2cn[nH]c2c1)c1cc(NCCCn2ccnc2)c(F)cc1F | 1 µg/mL | 52% |
| CSc1nc(Nc2ccc(N3CCOCC3)cc2)cc(N2CCN(CC(=O)N3CCN(CCN4CCOCC4)CC3)CC2)n1 | 1 µg/mL | 63% |
| NS(=O)(=O)c1ccc(CCNc2cc(C(=O)Nc3ccc4cn[nH]c4c3)c(F)cc2F)cc1 | 1 µg/mL | 44% |
| Cc1cnc(CNC(=O)c2ccc(S(=O)(=O)Nc3ccc(N4CCOCC4)cc3)cc2)cn1 | 1 µg/mL | 75% |
| O=C(Nc1ccc2[nH]ncc2c1)c1cc(NCCN2CCOCC2)c(F)cc1F | 0.1 µg/mL | 14% |
| CSc1nc(Nc2ccc(N3CCOCC3)cc2)cc(N2CCN(CC(=O)NC3CCCC3)CC2)n1 | 1 µg/mL | 60% |
| O=C(Nc1ccc2cn[nH]c2c1)c1cc(NCCN2CCOCC2)c(F)cc1F | 0.1 µg/mL | 0% |
| COc1nc(Nc2ccc3cn[nH]c3c2)nc(NN2CCOCC2)n1 | 1 µg/mL | 32% |
| O=C(O)c1ccc(S(=O)(=O)Nc2ccc(N3CCOCC3)cc2)cc1 | 0.1 µg/mL | 52% |
| COc1nc(Nc2ccc3cn[nH]c3c2)nc(NN2CCN(C)CC2)n1 | 10 µg/mL | 69% |
| O=C(NCCc1ccncc1)c1ccc(S(=O)(=O)Nc2ccc(N3CCOCC3)cc2)cc1 | 10 µg/mL | 90% |
| CON1C(Nc2ccc3cn[nH]c3c2)=NC(NC(C)C)=NC1NC(C)C | 10 µg/mL | 25% |
| O=C(NCCN1CCOCC1)c1ccc(S(=O)(=O)Nc2ccc(N3CCOCC3)cc2)cc1 | 0.1 µg/mL | 40% |
| COc1nc(Nc2ccc3cn[nH]c3c2)nc(N2CCN(CCO)CC2)n1 | 1 µg/mL | 54% |
| O=C(Nc1ccc2[nH]ncc2c1)c1cc(NCCO)c(F)cc1F | 1 µg/mL | 20% |

The last 2 rows once more:

compound | tested at | result
COc1nc(Nc2ccc3cn[nH]c3c2)nc(N2CCN(CCO)CC2)n1 | 1 µg/mL | 54%
O=C(Nc1ccc2[nH]ncc2c1)c1cc(NCCO)c(F)cc1F | 1 µg/mL | 20%